Key:
[1] = target: HIV-1 protease (Human immunodeficiency virus type 1 group M subtype B, UniProt P04585); experiment: in vitro inhibition of HIV-1 protease (octapeptide substrate cleavage, HPLC); conditions: substrate H-Val-Ser-Gln-Asn-Tyr-Pro-Ile-Val-OH
Experimental: HIV-1 protease is available for purchase from Medigenics, 701 Mercy Rd., Suite 420, Omaha, Nebraska 68106. Protease activity is assayed using the octapeptide H-Val-Ser-Gln-Asn-Tyr-Pro-Ile-Val-OH as the substrate. Cleavage of the substrate is quantitated by measuring the production of H-Val-Ser-Gln-Asn-Tyr-OH by HPLC analysis by the method described by Tomaselli et al., (cited previously).

[2] = system: HIV-1 strain IIIB; experiment: inhibition of growth of HIV-1 in MT-2 cells, CPE (cell death) measured with MTT dye; format: cell-based; conditions: T lymphoid MT-2 cell lines, after 5 days
Description: In Table 3 data is shown for the ability of these compounds to inhibit growth of HIV-1 strain IIIB in T lymphoid MT-2 cell lines. The endpoint of these experiments after 5 days is CPE (cell death) measured with the metabolic MTT dye.

O=C(N[C@H]1CCCC[C@@H]1NC(=O)[C@H](Cc1ccccc1)CC(O)C[C@@H](Cc1ccccc1)C(=O)N[C@H]1CCCC[C@@H]1NC(=O)c1ccc2ccccc2n1)c1ccc2ccccc2n1
IC50 [1]: 1 nM
% Inhibition at Concentration ([2]; 2.5 µg/ml): 104.1%
% Inhibition at Concentration ([2]; .625 µg/ml): 11.3%

— patent EP0492136A2, “Retroviral protease inhibitors derived from 3-chloro-2-chloromethyl-1-propene” (AMERICAN CYANAMID COMPANY, priority 1990, dated 1992)
